Broadly, the inhibition is the change of the read-out against control, counted positive when it falls.

This is a selection; strong and weak results do not stand in their true shares. The source made the active and inactive calls.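 Rule for the calls: active = inhibition above the mean plus 3 SD of compounds within the control limits, set per campaign (cut at about 38% in these data); inactive = the rest.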

This assay can be described thus: late stage P. falciparum gametocyte viability inhibitors, primary screen, ATP luminescence, HTS (AID 743093).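 Note: 0% = DMSO wells and 100% = medium only without gametocytes.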 Particulars: P. falciparum stage V gametocytes, 24 h, at 10.9 µM, hits give high values.
For `COc1ccc(CN(CCCl)CCCl)cc1Cl`, the inhibition is inactive: 8.38%.
Turning to `CC(C)c1ccc(NC2CCN(C(=O)OC(C)(C)C)CC2)cc1`, the inhibition was inactive: 4.54%.
For `CN1CCN(CCOC(=O)C(O)(c2ccccc2)c2ccccc2)CC1` the value was inactive: -6.07%.
For `COc1ccc(NC2CCN(C(=O)OC(C)(C)C)CC2)cc1`, the inhibition was inactive: -2.01%.
Take `O=C(NCC1(N2CCOCC2)CCCCC1)c1cc(=O)[nH]c2ccccc12`: the inhibition was inactive: 6.96%.
Regarding `O=C(NCC1(N2CCCCC2)CCCCC1)c1cccc([N+](=O)[O-])c1`, the inhibition is inactive: 15.6%.
For `CCN1CCC(Nc2ccc(Cl)cc2)CC1` the value was inactive: 8.35%; for `CCOC(=O)N1CCC(Nc2cccc(C)c2)CC1`, inactive: -7.48%.
Take `COc1ccc(NC2CCN(CCc3ccccc3)CC2)c(OC)c1`: the inhibition is inactive: -0.68%.
Then `CCOC(=O)N1CCC(Nc2ccc(F)cc2)CC1`, with inactive: -0.01%; and `CCOc1ccc(C)cc1CN(CCCl)CCCl`, with inactive: -8.19%; and `N#CC1(Nc2ccccc2)CCN(Cc2ccccc2)CC1`, with inactive: 9.64%.
In the case of `COc1ccc(C(=O)NCC2(N3CCCCC3)CCCCC2)c(OC)c1OC`, the inhibition is inactive: 5.73%.
For `CN1CCC(Nc2ccc(Cl)cc2)CC1` the value was inactive: -23.7%.
For `COc1cc(OC)cc(C(=O)NCC2(N3CCOCC3)CCCCC2)c1` the value was inactive: 0.9%; for `CC(C)(C)OC(=O)N1CCC(Nc2ccccc2)CC1`, inactive: 19.8%.
For `CN1CCC(Nc2ccc(F)c(Cl)c2)CC1`, the inhibition was inactive: -5.9%.
In the case of `CN(C)c1ccc(C(=O)NCC2(N3CCCCC3)CCCCC2)cc1`, the inhibition is inactive: -2.63%.
As for `Fc1ccccc1NC1CCN(Cc2ccccc2)CC1`, the inhibition was inactive: 15.9%.
Regarding `CCCN1CCC(Nc2cc(OC)cc(OC)c2)CC1`, the inhibition is inactive: -34.9%.
As for `O=C(OC1CN2CCC1CC2)C1c2ccccc2C=Cc2ccccc21` (centres undefined), the inhibition is inactive: -9.42%.
Then `N/C(=N\O)c1c(N)no[n+]1[O-]`, with inactive: 10.9%; and `CCOC(=O)N1CCC(Nc2ccc(C)cc2)CC1`, with inactive: 14.7%.
Turning to `COc1ccc(C(=O)NCC2(N3CCOCC3)CCCCC2)cc1OC`, the inhibition is inactive: 7.98%.

Source of the values: PubChem BioAssay AID743093 (The Scripps Research Institute Molecular Screening Center, 2013).
